{"source": "PubChem BioAssay AID488895", "about": "(Broad Institute, 2010)", "note": "This is a selection; strong and weak results do not stand in their true shares. Some structures show a salt or complex split into parts, the way the source records it. Active and inactive are the calls of the source.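 How the source made its calls: active means mean replicate inhibition at least 50% and at least half of replicates individually reaching 50%; inconclusive means only one of the two criteria met; inactive means neither criterion met.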"}
{"assay": "blockers of twin-arginine translocation in E. coli – MC4100, TorA-mCherry reporter, fluorescence, single point, primary screen (AID 488895);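 further: exported cargo escapes ClpAP degradation while cytoplasmic cargo is degraded and loses fluorescence; 0% = median of neutral control wells and 100% = median of NaSCN control wells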", "settings": "E. coli MC4100 TorA-mCherry Tat export, at 10 µM, hits give high values"}
{"smiles": "CP(=S)(Nn1cnnc1)Oc1ccccc1", "note": "(centres undefined)", "inhibition": "inactive: -2.81%"}
{"smiles": "Cc1cc(C)cc(OP(C)(=O)Nc2ccc(SC(F)(F)F)cc2)c1", "note": "(centres undefined)", "inhibition": "inactive: 12.7%"}
{"smiles": "CP(=O)(NC(=O)Nc1ccccc1)Oc1ccccc1", "note": "(centres undefined)", "inhibition": "inactive: -1.49%"}
{"smiles": "CCc1ccc(OP(C)(=O)N2CCN(c3ccc([N+](=O)[O-])cc3)CC2)cc1", "note": "(centres undefined)", "inhibition": "inactive: 2.38%"}
{"smiles": "CP(=O)(Oc1ccccc1)OC(c1ccccc1)C(F)(F)F", "note": "(centres undefined)", "inhibition": "inactive: 9.48%"}
{"smiles": "Cc1cccc(C)c1OP(C)(=O)Nc1ccc(SC(F)(F)F)cc1", "note": "(centres undefined)", "inhibition": "inactive: 0.61%"}
{"smiles": "CP(=O)(Nc1ccccn1)Oc1ccc(Cl)cc1", "note": "(centres undefined)", "inhibition": "inactive: -5.01%"}
{"smiles": "CCOC(=O)c1ccc(NP(C)(=O)Oc2ccc(OC)cc2)cc1", "note": "(centres undefined)", "inhibition": "inactive: -2.07%"}
{"smiles": "CCOP(C)(=S)SCC(=O)NC(C)C(=O)O", "note": "(centres undefined)", "inhibition": "inactive: -6.17%"}
{"smiles": "CCN(CC)CCCOC(=O)C(O)(c1ccccc1)c1ccccc1", "inhibition": "inactive: 3.64%"}
{"smiles": "O=[N+]([O-])c1ccc2c(c1)C=Nc1ccccc1O2", "inhibition": "inactive: 16.9%"}
{"smiles": "Cc1cccc(C)c1OP(C)(N)=O", "note": "(centres undefined)", "inhibition": "inactive: -3.93%"}
{"smiles": "CC(C)(C)c1ccc(OP(C)(=O)Nc2ccc(SC(F)(F)F)cc2)cc1", "note": "(centres undefined)", "inhibition": "inactive: 9.2%"}
{"smiles": "O=[N+]([O-])c1cc([N+](=O)[O-])c(Nc2cccnc2)c([N+](=O)[O-])c1", "inhibition": "inactive: 3.1%"}
{"smiles": "Cc1cc(C)cc(OP(C)(N)=O)c1", "note": "(centres undefined)", "inhibition": "inactive: -3.22%"}
{"smiles": "COc1ccc(OP(C)(=O)Nc2cccc(F)c2)cc1", "note": "(centres undefined)", "inhibition": "inactive: -1.72%"}
{"smiles": "COc1ccccc1OP(C)(=O)Nc1cc(Cl)ccc1C", "note": "(centres undefined)", "inhibition": "inactive: 3.45%"}
{"smiles": "Cc1ccc(NP(C)(=O)Oc2ccccc2)c(C)c1", "note": "(centres undefined)", "inhibition": "inactive: -5.57%"}
{"smiles": "COc1ccccc1OP(C)(=O)Nc1ccc(C)cc1", "note": "(centres undefined)", "inhibition": "inactive: -3.38%"}
{"smiles": "CCOC(=O)c1ccc(NP(C)(=O)Oc2ccccc2)cc1", "note": "(centres undefined)", "inhibition": "inactive: -4.92%"}
{"smiles": "COc1ccccc1OP(C)(=O)Nc1ccc(C)c(C)c1", "note": "(centres undefined)", "inhibition": "inactive: 2.49%"}
{"smiles": "COc1ccc(OP(C)(=O)Nc2ccccc2Br)cc1", "note": "(centres undefined)", "inhibition": "inactive: -3.73%"}
{"smiles": "Cc1cc(C)cc(OP(C)(=O)Nc2cccc(C(F)(F)F)c2)c1", "note": "(centres undefined)", "inhibition": "inactive: 23.1%"}
{"smiles": "O=C1C(O)=C([N+](=O)[O-])C(=O)C(O)=C1[N+](=O)[O-]", "inhibition": "inactive: -4.24%"}
{"smiles": "CP(=O)(Nc1ccc(Cl)cc1Cl)Oc1ccccc1", "note": "(centres undefined)", "inhibition": "inactive: 2.11%"}
{"smiles": "CP(=O)(OCCOc1ccccc1)OCCOc1ccccc1", "inhibition": "inactive: 6.64%"}
{"smiles": "COc1ccc(OP(C)(=O)Nc2ccccn2)cc1", "note": "(centres undefined)", "inhibition": "inactive: 13.5%"}
{"smiles": "CN(C)CCOC(=O)C(O)(c1ccccc1)C1CCCC1", "note": "(centres undefined)", "inhibition": "inactive: -3.22%"}
{"smiles": "COc1ccccc1OP(C)(=O)Nc1ccc(Br)cc1", "note": "(centres undefined)", "inhibition": "inactive: 2.15%"}
{"smiles": "COc1ccccc1OP(C)(=O)Nc1ccc(C)cc1C", "note": "(centres undefined)", "inhibition": "inactive: -5.24%"}
{"smiles": "CP(=O)(Nc1ccccn1)Oc1ccccc1", "note": "(centres undefined)", "inhibition": "inactive: 4.92%"}
{"smiles": "CCc1ccc(OP(C)(=O)O)cc1", "inhibition": "inactive: -8.34%"}
{"smiles": "Cc1c(NP(C)(=O)Oc2ccc(C(C)C)cc2)c(=O)n(-c2ccccc2)n1C", "note": "(centres undefined)", "inhibition": "inactive: -7.16%"}
{"smiles": "O=[N+]([O-])c1cc([N+](=O)[O-])c(Nc2ccccn2)c([N+](=O)[O-])c1", "inhibition": "inactive: -5.42%"}
{"smiles": "O=C(OCCCN1CCCC1)C(O)(c1ccccc1)C1CCCCC1", "note": "(centres undefined)", "inhibition": "inactive: 3.78%"}
{"smiles": "COc1ccccc1OP(C)(=O)Nc1c(C)n(C)n(-c2ccccc2)c1=O", "note": "(centres undefined)", "inhibition": "inactive: 4%"}
{"smiles": "CCc1ccc(OP(C)(=O)Nc2cccnc2)cc1", "note": "(centres undefined)", "inhibition": "inactive: 12.1%"}
{"smiles": "CP(=O)(Oc1ccccc1)N1CCOC1=O", "note": "(centres undefined)", "inhibition": "inactive: -2.54%"}
{"smiles": "COc1ccc(OP(C)(=O)Nc2ccc(Br)cc2)cc1", "note": "(centres undefined)", "inhibition": "inactive: -3.03%"}
{"smiles": "CCN(CC)CC(O)COC(=O)C(O)(c1ccccc1)C1CCCCC1", "note": "(centres undefined)", "inhibition": "inactive: 0.399%"}
{"smiles": "CN(C)C(=O)c1c([N+](=O)[O-])cc([N+](=O)[O-])cc1[N+](=O)[O-]", "inhibition": "inactive: -3.53%"}
{"smiles": "COc1ccccc1OP(C)(=O)Nc1ccccc1Br", "note": "(centres undefined)", "inhibition": "inactive: -1.48%"}
{"smiles": "CC(C)(C)c1ccc(OP(C)(=O)O)cc1", "inhibition": "inactive: -7.28%"}
{"smiles": "CP(=O)(Nc1ccc(Cl)cc1)Oc1ccc(F)cc1", "note": "(centres undefined)", "inhibition": "inactive: 3.4%"}
{"smiles": "CCOC(=O)c1ccc(NP(C)(=O)Oc2ccc(Cl)cc2)cc1", "note": "(centres undefined)", "inhibition": "inactive: 4.14%"}
{"smiles": "CP(=O)(OC12CC3CC(CC(C3)C1)C2)OC12CC3CC(CC(C3)C1)C2", "inhibition": "inactive: -12.9%"}
{"smiles": "CN(C)CCOC(=O)C(O)(c1ccccc1)C1CCCCC1", "note": "(centres undefined)", "inhibition": "inactive: 3.57%"}
{"smiles": "COc1ccc(NP(C)(=O)Oc2ccccc2OC)cc1", "note": "(centres undefined)", "inhibition": "inactive: -0.419%"}
{"smiles": "COc1ccc(OP(C)(=O)Nc2cccc(Br)c2)cc1", "note": "(centres undefined)", "inhibition": "inactive: -7.46%"}
{"smiles": "Cc1c(C(c2ccc3c(c2)OCO3)c2c(C)n(C)n(-c3ccccc3)c2=O)c(=O)n(-c2ccccc2)n1C.O=[N+]([O-])c1cc([N+](=O)[O-])c(O)c([N+](=O)[O-])c1", "inhibition": "inactive: 7.22%"}
{"smiles": "O=[N+]([O-])c1ccc(OP2(=O)COCCO2)cc1", "note": "(centres undefined)", "inhibition": "inactive: -7.45%"}
{"smiles": "O=[N+]([O-])c1cc([N+](=O)[O-])c(NCC2CCS(=O)(=O)C2)c([N+](=O)[O-])c1", "note": "(centres undefined)", "inhibition": "inactive: -5.38%"}
{"smiles": "Cc1cc(-c2cccc3ccccc23)c(C)cn1.O=[N+]([O-])c1cc([N+](=O)[O-])c(O)c([N+](=O)[O-])c1", "inhibition": "inactive: -5.28%"}
{"smiles": "CCOP(C)(=S)SCC(=O)NC(C)(CC)C(=O)O", "note": "(centres undefined)", "inhibition": "inactive: -14.4%"}
{"smiles": "CP(=O)(Nc1ccc(SC(F)(F)F)cc1)Oc1ccc(F)cc1", "note": "(centres undefined)", "inhibition": "inactive: 15%"}
{"smiles": "Cc1ccccc1NP(C)(=O)Nc1ccccc1C", "inhibition": "inactive: -2.13%"}
{"smiles": "CP(=O)(Nc1ccc2c(c1)OCCO2)Oc1ccccc1", "note": "(centres undefined)", "inhibition": "inactive: -5.57%"}
{"smiles": "CP(=O)(Nc1ccccc1F)Oc1ccccc1", "note": "(centres undefined)", "inhibition": "inactive: 4.26%"}
{"smiles": "CC(C)c1ccc(OP(C)(=O)Nc2ccc(SC(F)(F)F)cc2)cc1", "note": "(centres undefined)", "inhibition": "inactive: 2.35%"}
{"smiles": "COc1ccc2c(c1O)-c1c(O)c(OC)cc3c1[C@H](C2)[N+](C)(C)CC3.O=[N+]([O-])c1cc([N+](=O)[O-])c([O-])c([N+](=O)[O-])c1[O-]", "inhibition": "inactive: -4.89%"}
{"smiles": "O=C(OC1CN2CCC1CC2)c1ccc([N+](=O)[O-])cc1", "note": "(centres undefined)", "inhibition": "inactive: 0.205%"}
{"smiles": "O=C(OCCN1CCN(CCOCc2ccccc2)CC1)C(O)(c1ccccc1)c1ccccc1", "inhibition": "inactive: 2.1%"}
{"smiles": "CCOC(=O)c1ccc(NP(C)(=O)Oc2ccc(F)cc2)cc1", "note": "(centres undefined)", "inhibition": "inactive: -0.399%"}
{"smiles": "COc1ccc(OP(C)(=O)Nc2ccc(SC(F)(F)F)cc2)cc1", "note": "(centres undefined)", "inhibition": "inactive: 5.51%"}
{"smiles": "CP(=O)(Nc1ccccc1)Oc1ccc(F)cc1", "note": "(centres undefined)", "inhibition": "inactive: -0.141%"}
{"smiles": "O=[N+]([O-])c1cc([N+](=O)[O-])c(OC2CCCCC2O)c([N+](=O)[O-])c1", "note": "(centres undefined)", "inhibition": "inactive: -6.22%"}
{"smiles": "CCCCCOc1ccc(NP(C)(=O)Oc2ccc(Cl)cc2Cl)cc1", "note": "(centres undefined)", "inhibition": "inactive: 4.66%"}
{"smiles": "Cc1c([N+](=O)[O-])cc([N+](=O)[O-])c(Br)c1[N+](=O)[O-]", "inhibition": "inactive: 0.45%"}
{"smiles": "CCN(CC)CCCOC(=O)C(O)(c1ccccc1)C1CCCCC1", "note": "(centres undefined)", "inhibition": "inactive: -1.61%"}
